Measured values from several laboratories, pooled; numbers as filed in NIAID ChemDB.

All rows: growth or infection tests; organism: Hepatitis C virus

Blank or dashed fields: not listed here.

SMILES | endpoint | read by | strain or isolate | cells | value
CC1CCC(C(=O)N(c2cc(-c3ccc(NC(=O)c4cscn4)cc3)sc2C(=O)[O-])C(C)C)CC1.[NH4+] | EC50 | replicon | 1a | - | <0.5 µM
Nc1nc(N2CCOCC2)c2nc(-c3c(Cl)cccc3Cl)cnc2n1 | EC50 | - | - | Huh7 | 1–10 µM
CCCCCCCCCCCCCCNc1nc(=O)c2nc(Br)n(Cc3ccc(OC)cc3)c2c(=O)[nH]1 | EC50 | replicon | - | Huh7 | <10 µM
Nc1nc(N2CCOCC2)c2nc(-c3ccccc3Cl)cnc2n1 | EC50 | - | - | Huh7 | 0.3–1 µM
CCOC(=O)c1c(CSc2ccccc2)n(C)c2cc(C#N)c(O)c(CN(N3CCC(CO)CC3)N3CCC(CO)CC3)c12 | EC50 | ELISA | Genotype 1A | Huh7 | 51.8 µM
CC(=O)N1c2cccc(O)c2NC2=C(C(=O)CC(C)(C)C2)C1c1ccc(OCc2ccccc2)cc1F | EC50 | luciferase / reporter gene / replicon | 1b | - | 1.08 µM
Cn1c(=O)cc(Sc2ccc(Cl)cc2)c2cc(F)ccc21 | EC50 | luciferase / replicon | - | Huh-Luc-Neo | 1–10 µM
CCOC(=O)c1c(CS(=O)c2ccccc2)n(C)c2cc(-c3cccnc3)c(O)c(CN(C)C)c12 | EC50 | ELISA | - | Huh7.3 | 6.6 µM
CCOc1nc(N)nc2c1ncn2[C@@H]1O[C@@H]2COP(=O)(OC(C)C)O[C@H]2[C@@]1(C)F | EC50 | PCR | 2a | Lunet | 0.14 µM
CCC#Cc1cn([C@@H]2O[C@H](CO)[C@@H](O)[C@@]2(C)O)c2ncnc(N)c12 | EC50 | replicon | - | ET | >50 µM
C[C@]1(O)[C@H](n2ccc(N)nc2=O)C[C@@](O)(C(F)(F)F)[C@H]1O | EC50 | replicon | - | Huh7 | >50 µM
O=c1[nH]c(=O)n([C@H]2C[C@H](O)[C@@H](O)O2)cc1C#Cc1ccc2c3cccc4cccc(c5cccc1c52)c43 | EC50 | - | JFH-1 | Huh7.5 | 0.107 µM
O=c1ccn([C@@H]2O[C@H](CO)[C@@H](O)[C@H]2F)c(=O)[nH]1 | EC90 | replicon | - | MDBK | >100 µM
C(=C\c1ccccc1)/CNc1ccc2nc[nH]c2c1 | EC50 | PCR | - | Huh7.5 | 5.1 µM
COc1ccc([C@H]2Oc3ccc([C@H]4Oc5cc(O)cc(O)c5C(=O)[C@@H]4O)cc3O[C@@H]2CO)cc1O | EC50 | replicon | 1b | Huh7 | 1.5 µM
CCOC(=O)c1c(CSc2cccs2)n(C)c2cc(Br)c3c(c12)CN(C)CO3 | EC50 | ELISA | Genotype 1A | Huh7 | 12.8 µM
C=C[C@@H]1CC1(NC(=O)[C@@H]1C[C@@H](Oc2ccnc3cc(OC)ccc23)CN1C(=O)[C@@H](NC(=O)[C@@H](NC(C)=O)C1CCCCC1)C(C)C)C(=O)O | EC50 | replicon | - | Huh7 | >5 µM
Cc1ccc2c(c1)c(Sc1ccc(F)cc1)cc(=O)n2C | EC50 | luciferase / replicon | - | Huh-Luc-Neo | <1 µM
COC(=O)C1=C(C(=O)OC)C2N(CCCCCNC(=O)CCCCCNC(=O)CCCC3SCC4NC(=O)NC43)c3ccccc3[C@@]23CC(=O)N(Cc2ccccc2)C3=N1 | EC90 | PCR | - | Huh7.5 | 47.3 µM
CCOC(=O)c1c(CSc2ccccc2)n(C)c2cc(C#N)c(O)c(CN(N(C)C)N(C)C)c12 | EC50 | ELISA | Genotype 1A | Huh7 | 28.9 µM
CCCCOc1nc(N)nc2ncc(-c3ccc(F)cc3)nc12 | EC50 | - | - | Huh7 | 1–10 µM
CCOC(=O)c1c(CS(=O)(=O)c2ccccc2)n(C)c2cc(-c3cccnc3)c(O)c(CN(C)C)c12 | EC50 | ELISA | - | Huh7.3 | 14.3 µM
CNc1nc(=O)c2nc(Br)n(Cc3ccc(OC)cc3)c2c(=O)[nH]1 | EC50 | replicon | - | Huh7 | >10 µM
CCn1ccc(C(=O)Nc2ccc(-c3cc(N(C(=O)C4CCC(C)CC4)C(C)C)c(C(=O)O)s3)cc2)n1 | EC50 | replicon | 1a | - | <0.5 µM
CC(C)Nc1nc(C(=O)N2c3cccc(O)c3NC3=C(C(=O)CC(C)(C)C3)C2c2ccc(OCc3ccccc3)cc2F)cs1 | EC50 | luciferase / reporter gene / replicon | 1b | - | 4.33 µM
CCOC(=O)c1c(COc2ccccc2)n(C)c2cc(Br)c(O)c(CN(N3CCC(CO)CC3)N3CCC(CO)CC3)c12 | EC50 | ELISA | Genotype 1A | Huh7 | 50.6 µM
CCCCCCCCNc1nc(=O)c2nc(Br)n(Cc3ccccc3)c2c(=O)[nH]1 | EC50 | replicon | - | Huh7 | <10 µM
CC1CCC(C(=O)N(c2cc(-c3ccc(NC(=O)c4ccco4)cc3)sc2C(=O)O)C(C)C)CC1 | EC50 | replicon | 1b | - | <0.5 µM
C=Cc1cn([C@@H]2C=C(CO)[C@@H](O)[C@H]2O)c2ncnc(C)c12 | EC50 | luciferase | - | LucNeo2 cells | >100 µM
Cc1cc(F)ccc1-c1cnc2nc(N)nc(N3CCOCC3)c2n1 | EC50 | - | - | Huh7 | 1–10 µM
CN1CCN(C(=O)CNC(=O)N2c3cccc(O)c3NC3=C(C(=O)CC(C)(C)C3)C2c2ccc(OCc3ccccc3)cc2Cl)CC1 | EC50 | luciferase / reporter gene / replicon | 1b | - | 87 µM
CC(C)(C)C(=O)SCCOP(=O)(OCCSC(=O)C(C)(C)C)OC[C@H]1O[C@@H]([n+]2c(=O)[nH]cc3[nH]ccc32)[C@H](O)[C@@H]1O | EC50 | replicon | - | - | 60 µM
CCOc1nc(N)nc2ncc(-c3ccncc3)nc12 | EC50 | - | - | Huh7 | 0.3–1 µM
CC1CCC(C(=O)N(c2cc(-c3ccc(NC(=O)c4cscn4)cc3)sc2C(=O)[O-])C(C)C)CC1.C[N+](C)(C)CCO | EC50 | replicon | 1b | - | <0.5 µM
COc1ccc2c(O[C@@H]3C[C@H]4C(=O)N[C@]5(C(=O)O)C[C@H]5C=CCCCN(NC(=O)OC(C)(C)C)C(=O)[C@@H]4C3)cc(-c3ccccc3)nc2c1 | EC50 | luciferase | 1b | Huh7-Rep | >0.01 µM
CC#Cc1cn([C@@H]2O[C@H](CO)[C@@H](O)[C@@]2(C)O)c2ncnc(N)c12 | EC50 | replicon | - | ET | >50 µM
COc1cc(C2C3CO[C@]4(O)C[C@H]2C=C([C@H]2Oc5cc(O)cc(O)c5C(=O)[C@@H]2O)[C@H]34)ccc1O | EC50 | replicon | 1b | Huh7 | >100 µM
CCOc1nc(N)nc2ncc(-c3ccc(N)cc3)nc12 | EC50 | - | - | Huh7 | 1–10 µM
CC1CCC(C(=O)N(c2cc(-c3ccc(NC(=O)c4cnc[nH]4)cc3)sc2C(=O)O)C(C)C)CC1 | EC50 | replicon | 1a | - | <0.5 µM
Cc1ccc2c(c1)c(Sc1ccc(Br)cc1)cc(=O)n2C | EC50 | luciferase / replicon | - | Huh-Luc-Neo | <1 µM
COc1ccc(Cn2c(Br)nc3c(=O)nc(N)[nH]c(=O)c32)cc1 | EC50 | replicon | - | Huh7 | <10 µM
COC(=O)C1=C(C(=O)OC)C2N(C)c3ccc(OC)cc3[C@@]23C[C@@H](C(=O)OC)N(C(=O)CC(C)C)C3=N1 | EC50 | PCR | - | Huh7.5 | 8.8 µM
COc1ccc2c(O[C@@H]3C[C@@H](C(=O)NC4(C(=O)O)CC4)N(C(=O)[C@@H](NC(=O)[C@@H](NC(C)=O)C4CCCCC4)C(C)C)C3)ccnc2c1 | EC50 | replicon | - | Huh7 | >20 µM
Cn1c(=O)cc(Sc2ccc(N)cc2)c2ccc(Cl)cc21 | EC50 | luciferase / replicon | - | Huh-Luc-Neo | <1 µM
CCOC(=O)c1c(CSc2ccccn2)n(C)c2cc(Br)c3c(c12)CN(C)CO3 | EC50 | ELISA | Genotype 1A | Huh7 | 12.5 µM
COc1ccc(C(=O)N2c3cccc(O)c3NC3=C(C(=O)CC(C)(C)C3)[C@@H]2c2ccc(OCc3ccccc3)cc2F)nc1Br | EC50 | luciferase / reporter gene / replicon | 1b | - | 1.14 µM
Cn1c(=O)cc(Sc2cccc(F)c2)c2ccccc21 | EC50 | luciferase / replicon | - | Huh-Luc-Neo | 1–10 µM
CC(C)C(=O)N1c2cccc(O)c2NC2=C(C(=O)CC(C)(C)C2)C1c1ccc(OCc2ccccc2)cc1F | EC50 | luciferase / reporter gene / replicon | 1b | - | 1.39 µM
Cn1c(=O)cc(Sc2ccc(N)cc2)c2ccccc21 | EC50 | luciferase / replicon | - | Huh-Luc-Neo | <1 µM

Repeating the first 7 entries:

SMILES | endpoint | read by | strain or isolate | cells | value
CC1CCC(C(=O)N(c2cc(-c3ccc(NC(=O)c4cscn4)cc3)sc2C(=O)[O-])C(C)C)CC1.[NH4+] | EC50 | replicon | 1a | - | <0.5 µM
Nc1nc(N2CCOCC2)c2nc(-c3c(Cl)cccc3Cl)cnc2n1 | EC50 | - | - | Huh7 | 1–10 µM
CCCCCCCCCCCCCCNc1nc(=O)c2nc(Br)n(Cc3ccc(OC)cc3)c2c(=O)[nH]1 | EC50 | replicon | - | Huh7 | <10 µM
Nc1nc(N2CCOCC2)c2nc(-c3ccccc3Cl)cnc2n1 | EC50 | - | - | Huh7 | 0.3–1 µM
CCOC(=O)c1c(CSc2ccccc2)n(C)c2cc(C#N)c(O)c(CN(N3CCC(CO)CC3)N3CCC(CO)CC3)c12 | EC50 | ELISA | Genotype 1A | Huh7 | 51.8 µM
CC(=O)N1c2cccc(O)c2NC2=C(C(=O)CC(C)(C)C2)C1c1ccc(OCc2ccccc2)cc1F | EC50 | luciferase / reporter gene / replicon | 1b | - | 1.08 µM
Cn1c(=O)cc(Sc2ccc(Cl)cc2)c2cc(F)ccc21 | EC50 | luciferase / replicon | - | Huh-Luc-Neo | 1–10 µM

Lines come from different laboratories, so protocols vary. ECn: concentration that inhibits the pathogen or its effect by n%. Two numbers with a dash give a range or band.